PubChem BioAssay AID504761 | Drosophila RNAi Screening Center | 2011
The screen tested about 22,000 reagents; below is an unselected part of those with a known target gene and a result. In the full data, 116 (0.52%) got an active call. 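Calls depend on retest data that are not deposited; infection was ranked per plate without normalising between plates; the unit of the infection score is not given.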 Not all columns of the deposit are shown. Not given: the amount of reagent, the time to read-out.

Assay: 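Fly genes whose silencing reduces dengue virus type 2 infection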 (primary screen)
Cells: D.Mel-2 cells from Drosophila
Knock-down reagent: long dsRNA against Drosophila genes
Conditions: infection with dengue virus type 2; dose and infection time not stated
Measurement: 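Per well on two replicate plates, imaging gave the percent of cells positive for viral envelope protein, ranked by infection, and a nuclear count of cells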
Reading the numbers: infection score: higher = more virus-infected cells
Active means: 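Low infection ranks in the two replicates (chance level up to 0.065) followed by a retest with a 1.5-fold or larger significant decrease, p below 0.05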
Meaning of the calls: active = confirmed: knock-down lowers infection; inactive = not picked or not confirmed

The first 2 entries as a preview:
{"gene": "rtp (retinophilin)", "DRSC id": "DRSC12132", "infection score, replicate 1": 4.03, "Call": "inactive"}
{"gene": "tomboy20", "DRSC id": "DRSC14913", "infection score, replicate 1": 6.23, "Call": "inactive"}

Results, from the first entry:
{"gene": "rtp (retinophilin)", "DRSC id": "DRSC12132", "infection score, replicate 1": 4.03, "Call": "inactive"}
{"gene": "tomboy20", "DRSC id": "DRSC14913", "infection score, replicate 1": 6.23, "Call": "inactive"}
{"gene": "CG13272", "DRSC id": "DRSC02249", "infection score, replicate 1": 6.41, "Call": "inactive"}
{"gene": "CG13272", "DRSC id": "DRSC22910", "infection score, replicate 1": 2.47, "Call": "inactive"}
{"gene": "CG13272", "DRSC id": "DRSC28613", "infection score, replicate 1": 8.41, "Call": "inactive"}
{"gene": "cbc (crowded by cid)", "DRSC id": "DRSC06957", "infection score, replicate 1": 6.77, "Call": "inactive"}
{"gene": "CG14418", "DRSC id": "DRSC23051", "infection score, replicate 1": 3.06, "Call": "inactive"}
{"gene": "metro (menage a trois)", "DRSC id": "DRSC06341", "infection score, replicate 1": 12.8, "Call": "inactive"}
{"gene": "metro (menage a trois)", "DRSC id": "DRSC06725", "infection score, replicate 1": 14.2, "Call": "inactive"}
{"gene": "metro (menage a trois)", "DRSC id": "DRSC27336", "infection score, replicate 1": 6.91, "Call": "inactive"}
{"gene": "CG4281", "DRSC id": "DRSC18521", "infection score, replicate 1": 12.2, "Call": "inactive"}
{"gene": "CG4281", "DRSC id": "DRSC28415", "infection score, replicate 1": 13.7, "Call": "inactive"}
{"gene": "Idgf6 (Imaginal disc growth factor 6)", "DRSC id": "DRSC07360", "infection score, replicate 1": 3.12, "Call": "inactive"}
{"gene": "Idgf6 (Imaginal disc growth factor 6)", "DRSC id": "DRSC24904", "infection score, replicate 1": 5.15, "Call": "inactive"}
